Two sequences from article PMC7899991, “A Novel Aza-Derivative Inhibits agr Quorum Sensing Signaling and Synergizes Methicillin-Resistant Staphylococcus aureus to Clindamycin” (Frontiers in Microbiology, 2021) can be followed below.

Construct, isoform or probe ends are uncertain for at least one entry. Where a protein sequence is shown, tags need not be part of it.

In this series the target is T1, AgrA (Staphylococcus aureus) (UniProt Q5HEG2).
T1 sequence (looked up, limits assumed): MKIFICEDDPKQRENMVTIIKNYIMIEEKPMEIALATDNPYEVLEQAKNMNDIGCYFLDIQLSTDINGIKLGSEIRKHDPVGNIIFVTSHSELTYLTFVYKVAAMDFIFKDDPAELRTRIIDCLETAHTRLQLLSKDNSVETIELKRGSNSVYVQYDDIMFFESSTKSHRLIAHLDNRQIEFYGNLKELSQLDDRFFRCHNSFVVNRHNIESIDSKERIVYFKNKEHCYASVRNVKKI
The experiment in a line: EMSA. Particulars: 50 mM KCl, 1 mM EDTA, 0.05% Triton X-100, 5% glycerol, recombinant protein, protein details: IMPACT intein/chitin tag, removed by DTT cleavage, label: 6-FAM (5' in Table 2, 3' in Methods text). (Mobility shift assays separate free from complexed probe on a gel.)

The mark [1] stands for this setting: no Azan-7, 10 mM HEPES pH 7.6, 2 mM DTT.

Take “AATTTTTCTTAACTAGTCGTTTTTTATTCTTAACTGTAAATTTTT (double strand) [P3 promoter oligonucleotide]”: under setting [1], the binding result is listed as “binds”. Take “TACATTTAACAGTTAAGTATTTATTTCCTACAGTTAGGCAATATAATG (double strand) [P2 promoter oligonucleotide]”: the binding result (Azan-7 50-200 uM, not significantly affected, 10 mM HEPES pH 7.6, 2 mM DTT) was “binds” and the binding result under setting [1] is listed as “binds”.
